Anti-infective test results gathered from many reports (values: NIAID ChemDB through PubChem).

Shared fields: tests in culture

Blank or dashed fields: not listed here.

structure	method	measure	strain	conditions	mutations	species	value
CN(C)[C@@H]1C(=O)C(C(N)=O)=C(O)[C@@]2(O)C(=O)C3=C(O)c4c(O)cccc4[C@@](C)(O)[C@H]3C[C@@H]12	broth dilution	MIC50				Mycobacterium chelonae	>128 µg/mL
Cn1cc(/C=N/Nc2nncs2)c2ccccc21	broth dilution	MIC100	1173P2	24 h		Mycobacterium bovis BCG	15.63 µg/mL
COc1cc(Cc2cnc(N)nc2N)cc(OC)c1OCCCNc1ccc(S(=O)(=O)c2ccc(N)cc2)cc1		MIC	Isolate 842			Mycobacterium ulcerans	1 µg/mL
O=C(Nc1ccc(Cl)cc1)c1cc(Cl)ccc1OP(=O)(Oc1ccccc1)c1ccccc1		MIC	My 6509/96	21 d		Mycobacterium kansasii	8 µM
CCn1cc(/C=N/Nc2nncs2)c2ccccc21	broth dilution	MIC100	1173P2	48 h		Mycobacterium bovis BCG	250 µg/mL
O=C(Nc1ccccc1)c1ccccc1OP(=O)(Oc1ccccc1)Oc1ccccc1		MIC	My 6509/96	21 d		Mycobacterium kansasii	250 µM
Nc1ccc(S(=O)(=O)c2ccc(N)cc2)cc1		MIC	ATCC 19423			Mycobacterium ulcerans	2 µg/mL
Cc1ccc(Cn2cc(/C=N/NC(=S)NN)c3ccccc32)cc1	broth dilution	MIC100	1173P2	48 h		Mycobacterium bovis BCG	>500 µg/mL
CO[C@@H]1C[C@@H](C[C@H]2CC[C@H](C)[C@H]([C@@H](C)C(=O)O)O2)O[C@]2(O[C@](C)([C@H]3CC[C@@](C)([C@@H]4O[C@@H]([C@H]5O[C@@](O)(CO)[C@H](C)C[C@@H]5C)C[C@@H]4C)O3)C[C@H]2C)[C@@H]1C	resazurin	MIC	L948			Mycobacterium abscessus	>20 µg/mL
O=C1c2cc(Cl)ccc2OP(=O)(c2ccccc2)N1c1ccc(Cl)cc1		MIC	My 6509/96	21 d		Mycobacterium kansasii	16 µM
CC[C@H]1OC(=O)[C@H](C)[C@@H](O[C@H]2C[C@@](C)(OC)[C@@H](O)[C@H](C)O2)[C@H](C)[C@@H](O[C@@H]2O[C@H](C)C[C@H](N(C)C)[C@H]2O)[C@](C)(OC)C[C@@H](C)C(=O)[C@H](C)[C@@H](O)[C@]1(C)O	broth dilution	MIC	T45			Mycobacterium abscessus	4 µg/mL
O=C(Nc1ccc(Cl)c(Cl)c1)c1cc(Cl)ccc1OP(=O)(OCc1ccccc1)OCc1ccccc1		MIC	My 6509/96	14 d		Mycobacterium kansasii	125 µM
NNC(=S)N/N=C/c1cn(Cc2ccccc2)c2ccccc12	broth dilution	MIC100	1173P2	48 h		Mycobacterium bovis BCG	>500 µg/mL
CNc1ccc2oc(C[C@@H]3OC4(CC[C@@H]3C)O[C@H](C(C)C(=O)c3ccc[nH]3)[C@H](C)C[C@H]4C)nc2c1C(=O)O	resazurin	MIC			G457A	Mycobacterium aurum	0.64 µg/mL
O=C1c2cc(Cl)ccc2OP(=O)(c2ccccc2)N1c1ccc(C(F)(F)F)cc1		MIC	My 6509/96	14 d		Mycobacterium kansasii	8 µM

For reference, 2 entries again:

structure | method | measure | strain | conditions | mutations | species | value
O=C(Nc1ccccc1)c1ccccc1OP(=O)(Oc1ccccc1)Oc1ccccc1 |  | MIC | My 6509/96 | 21 d |  | Mycobacterium kansasii | 250 µM
CNc1ccc2oc(C[C@@H]3OC4(CC[C@@H]3C)O[C@H](C(C)C(=O)c3ccc[nH]3)[C@H](C)C[C@H]4C)nc2c1C(=O)O | resazurin | MIC |  |  | G457A | Mycobacterium aurum | 0.64 µg/mL

A number after MIC or MFC names an inhibition level or a share of isolates. Neighbouring rows are from separate reports.